This note sets out measurements from paper PMC4538827.

The exact form of at least one protein or probe is not confirmed.

Series [1] has as its system σNS (sigma NS) (Avian reovirus strain 1733). The experiment in a line: native ESI-MS. Particulars: hexamer with 1 or 2 RNAs; recombinant protein; protein details: His-tag (pET-15b) removed with thrombin.
Series [2] has the same test system. Nature of the series: SEC. To be noted: recombinant protein; protein details: His-tag (pET-15b) removed with thrombin; label: AF488 3' end (Methods).
Series [3] has the same test system. The experiment in a line: analytical ultracentrifugation (SV). Particulars: 13S and 18S complexes, 1:1 and 2:1 hexamer:RNA; recombinant protein; protein details: His-tag (pET-15b) removed with thrombin; label: AF488; letters put together from the description.
For series [4] the test system is unchanged. The experiment in a line: FCS. To be noted: Rh 3.6 to 4.8 nm at 0.5-1 uM, 5.9 nm at 5-10 uM σNS; recombinant protein; protein details: His-tag (pET-15b) removed with thrombin; label: AF488; letters put together from the description.
Series [5] has the same test system. Nature of the series: single-molecule FRET (ALEX). Particulars: unwinding, up to 20 uM σNS, 37 C; recombinant protein; protein details: His-tag (pET-15b) removed with thrombin; label: 5' AF488, 3' Texas Red; folded or branched DNA.

As to “GACCUAUUCUCUUUUUCUCU [20-nt RNA, unlabelled]”, the binding result in series [1] is on record as “binds”.
For “GACCUAUUCUCUUUUUCUCUCCUUUUCCCC [30-nt RNA]”, the binding result in series [2] is “binds”.
For “GGGAGACCUAUUCUCUUUUUCUCUCCUUUUCCCCCCUGUUGCUUUAUUUUCCUUCUUUGCCUUUUUCUCUCUUUUUUUUUCUUUUUUCCCUUUCUGCUUUCCUCCCCUAUUCUCCCCUCUU [120-nt RNA]”, the binding result in series [3] and in series [4] was “binds” each time.
“ATAGGTATAACAGTTAACGTATGCTATACGCTAATAGCATACGTTT [46-nt stem-loop]”: the binding result in series [5] was “binds”.
